Data as given in PubChem BioAssay AID624099 (ICCB-Longwood, 2012).
In all, the deposit lists about 21,000 reagents; shown is a random part of them. Over the whole deposit, 497 (2.4%) got an active call. 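Higher z means weaker E2 silencing; only reporter increases were scored, and knock-downs that hurt cell survival may mask genuine repressor factors.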

- Test: 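Human genes that papillomavirus E2 requires to repress the HPV18 LCR promoter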 (primary screen)
- Cells: human C33A cervical carcinoma cells (HPV-negative) stably expressing BPV1 E2 and an HPV18 LCR luciferase reporter
- Reagents: siRNA pool against human genes, 40 nM
- Time to read-out: 72 h
- Detection: 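Per-well luciferase luminescence, z-scored on each plate against the plate mean and SD with control wells left out, then averaged across three replicate plates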
- Direction: mean z-score and z-score: higher = stronger reporter signal, weaker E2 silencing
- Rule for the call: 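Mean z ≥ 2 together with z ≥ 2 in two or more of the three replicates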

| gene | mean z-score | z-score, replicate A | z-score, replicate B | z-score, replicate C | Call |
| --- | --- | --- | --- | --- | --- |
| ANKRD13C (ankyrin repeat domain 13C) | -2.32 | -1.73 | -2.35 | -2.88 | inactive |
| SLC49A4 | -0.13 | 0.01 | -0.16 | -0.22 | inactive |
| LOC402485 (retired record) | -0.17 | -0.09 | -0.37 | -0.06 | inactive |
| GPX1 (glutathione peroxidase 1) | -0.3 | -0.14 | -0.44 | -0.32 | inactive |
| KIFC2 (kinesin family member C2) | 0.03 | 0.1 | -0.03 | 0.02 | inactive |
| LINC03062 (long independently transcribed non-coding RNA 3062) | -0.51 | -0.08 | -0.73 | -0.74 | inactive |
| RASSF8 (Ras association domain family member 8) | 0.65 | 0.78 | 0.65 | 0.51 | inactive |
| MTTP (microsomal triglyceride transfer protein) | -0.65 | -1.07 | -0.93 | 0.05 | inactive |
| DOCK8-AS1 (DOCK8 antisense RNA 1) | 0.51 | 0.19 | 0.53 | 0.81 | inactive |
| MACF1 (microtubule actin crosslinking factor 1) | 2.98 | 2.44 | 2.86 | 3.64 | active |
| LRCH3 | -0.79 | -0.59 | -0.72 | -1.07 | inactive |
| LHCGR (luteinizing hormone/choriogonadotropin receptor) | 0.34 | 0.41 | 0.3 | 0.32 | inactive |
| ARID2 (AT-rich interaction domain 2) | 0.47 | 0.61 | 0.55 | 0.26 | inactive |
| TOP6BL (TOP6B like initiator of meiotic double strand breaks) | -0.22 | -0.34 | -0.39 | 0.08 | inactive |
| FXYD4 (FXYD domain containing ion transport regulator 4) | -0.09 | -0.07 | 0.18 | -0.37 | inactive |
| RPS3A (ribosomal protein S3A) | -1.52 | -1.38 | -1.69 | -1.49 | inactive |
| CEBPB (CCAAT enhancer binding protein beta) | -0.43 | -0.41 | -0.59 | -0.3 | inactive |
| PNN (pinin, desmosome associated protein) | 0.93 | 0.88 | 0.97 | 0.93 | inactive |
| IL7 (interleukin 7) | 0.78 | 0.69 | 0.85 | 0.8 | inactive |
| HSD17B10 (hydroxysteroid 17-beta dehydrogenase 10) | 0.41 | 0.24 | 0.58 | 0.42 | inactive |
| LRRC9 (leucine rich repeat containing 9) | -0.86 | -1.14 | -0.94 | -0.5 | inactive |
| PLSCR2 (phospholipid scramblase 2) | 1.69 | 1.76 | 1.39 | 1.91 | inactive |
| TFB1M (transcription factor B1, mitochondrial) | -1.71 | -2.31 | -1.76 | -1.06 | inactive |
| LOC390577 (retired record) | 0.25 | 0.36 | 0.01 | 0.38 | inactive |
| LOC388563 (retired record) | 0.94 | 1.24 | 1.04 | 0.54 | inactive |
| H2AC1 (H2A clustered histone 1) | 0.39 | 0.55 | 0.41 | 0.2 | inactive |
| OR13C5 (olfactory receptor family 13 subfamily C member 5) | 0.55 | 0.78 | 0.49 | 0.38 | inactive |
| LOC392152 (retired record) | 0.69 | 0.34 | 0.82 | 0.91 | inactive |
| SCN9A (sodium voltage-gated channel alpha subunit 9) | -0.52 | -0.5 | -0.46 | -0.59 | inactive |
| ACTR10 (actin related protein 10) | 1.1 | 1.36 | 0.95 | 1 | inactive |
| LOC390020 (retired record) | -0.42 | -0.57 | -0.22 | -0.48 | inactive |
| FUT1 (fucosyltransferase 1 (H blood group)) | -0.39 | -0.56 | -0.54 | -0.07 | inactive |
| MAPK3 (mitogen-activated protein kinase 3) | -0.94 | -1.34 | -1.31 | -0.17 | inactive |
| PLGLB2 (plasminogen like B2) | 0.8 | 0.67 | 0.69 | 1.04 | inactive |
| APMAP (adipocyte plasma membrane associated protein) | -0.36 | -0.47 | -0.28 | -0.33 | inactive |
| CEACAM6 (CEA cell adhesion molecule 6) | -1.76 | -1.68 | -1.83 | -1.76 | inactive |
| LAMTOR5 (late endosomal/lysosomal adaptor, MAPK and MTOR activator 5) | -1.11 | -0.86 | -1.18 | -1.29 | inactive |
| IFNA21 (interferon alpha 21) | -1.85 | -1.77 | -2.01 | -1.79 | inactive |
| PMS1 (PMS1 homolog 1, mismatch repair system component) | 0.69 | 0.68 | 0.77 | 0.61 | inactive |

Single entries from the list.
Entry for PNN (pinin, desmosome associated protein) in “z-score, replicate A”: 0.88
Value of PMS1 (PMS1 homolog 1, mismatch repair system component) in “z-score, replicate B”: 0.77
ACTR10 (actin related protein 10), z-score, replicate C: 1
FXYD4 (FXYD domain containing ion transport regulator 4), mean z-score = -0.09
Under “z-score, replicate A”, LOC390577 (retired record) shows 0.36
For “mean z-score”, RPS3A (ribosomal protein S3A) shows -1.52
